What was measured:
Experiment in all cases: Antifungal susceptibility, MIC by broth macro-dilution method
Conditions in all cases: RPMI 1640 medium with MOPS buffer, end points after 48 hours, NI till x = no inhibition up to x
C. albicans (ATCC 24433) = assay type: cell-based, Candida albicans
Method: (§1) In vitro evaluation of antifungal activity was performed by determining the minimum inhibitory concentration (MIC). Anti-fungal susceptibility testing of these anti-fungal compounds was done by broth dilution method using RPMI 1640 medium with MOPS buffer. Known anti-fungal agents like fluconazole and amphotericin-B were used as positive control. End points were determined after 48 hours visually and by using spectrophotometer wherever necessary. Different dilutions were, tried and various sets of experiments performed.

A. niger (ATCC 16404) = assay type: cell-based, Aspergillus niger
Method: as §1

[1] = system: F. proliferatum (ATCC 10052); assay type: cell-based, Fusarium proliferatum
Method: as §1

amphotericin-B
MIC against fungi, C. albicans (ATCC 24433) (C. albicans (ATCC 24433)): 0.12 to 0.25 µg/mL
MIC against fungi, A. niger (ATCC 16404) (A. niger (ATCC 16404)): 0.25 to 1 µg/mL
MIC against fungi, F. proliferatum (ATCC 10052) [1]: 1 to 2 µg/mL
